Results reported in doi:10.1101/162396.

Key:
[1] = tested on: Norovirus group 2 capsid antigen virus-like particle (NoV VLP); assay: fluorescence recovery from MWCNT quenching; settings: 5 uM aptamer, 0.1 mg/mL MWCNT, 129 ng/mL VLP
[2] = tested on: Norovirus group 2 capsid antigen virus-like particle (NoV VLP); assay: fluorescence recovery from graphene oxide quenching; settings: 5 uM aptamer, 0.05 mg/mL GO, 129 ng/mL VLP

“AGTATACGTATTACCTGCAGCCCATGTTTTGTAGGTGTAATAGGTCATGTTAGGGTTTCTGCGATATCTCGGAGATCTTGC [6-FAM norovirus aptamer]”: binds [1]; binds [2].

The exact form of at least one protein or probe is not confirmed.
